Data published in article PMC8692891, “Native CGRP Neuropeptide and Its Stable Analogue SAX, But Not CGRP Peptide Fragments, Inhibit Mucosal HIV-1 Transmission” (Frontiers in Immunology, 2021).

What was measured:
[1] = test system: HIV-1 JRCSF; test: Vaginal HIV-1 challenge of humanized BLT mice; format: in vivo; settings: n = 5 per group
Procedure: Humanized female bone-marrow/liver/thymus (BLT) mice were prepared, inoculated and examined for HIV-1 infection at the Ragon Institute Human Immune System Mouse Program, according to their established protocols (see https://www.ragoninstitute.org/research/services/humanized-mouse/). Expression of human langerin was determined by immunohistochemistry of 4 μm vaginal tissue paraffin sections as we described ([12]), using goat-anti-human langerin Ab (R&D), the LSAB2-HRP System with DAB as substrate (Dako) and counterstaining with hematoxylin. For infection experiments, CGRP (500 nM or 5 μM) in 30 μl sterile PBS or PBS alone were topically applied onto the vaginal epithelium for 4 h, followed by topical vaginal challenge with 2 × 10^4 TCID50 HIV-1 JRCSF.
Figure 1 CGRP limits mucosal HIV-1 transmission in-vivo. (A) CGRP (1 μM) or PBS were topically applied intravaginally in normal female BALB/c mice (n = 3 animals per group). Vaginal tissue sections were examined by immunohistochemistry for the presence of CD3+ T-cells, B220+ B cells and F4/80+ macrophages. Shown are mean ± SEM cell densities expressed as cells/mm^2 (of n = 3 independent experiments) in either the vaginal epithelium or stroma. […]

[2] = test system: HIV-1 ADA; test: MDLCs-mediated HIV-1 trans-infection to CD4+ T-cells; format: cell-based; settings: MDLCs treated 24 h
Procedure: (§1) MDLCs (10^5/well in 96 round-bottom well plates) were treated for 24 h at 37°C (200 μl/well final) with the indicated molar concentrations of CGRP, SAX or CGRP fragments. The CGRP receptor antagonist BIBN4096 was added 15 min before agonists. For langerin surface expression, MDLCs were washed and stained for 20 min on ice in a final volume of 50 µl PBS with a phycoerythrin (PE)-conjugated mouse monoclonal Ab against human langerin (clone DCGM4, Beckman Coulter), or matched isotype control. For HIV-1 trans-infection, MDLCs were washed and pulsed with HIV-1 ADA (1ng p24 corresponding to multiplicity of infection of 0.2) for 4 h. MDLCs were next incubated with autologous CD4+ T-cells or with green fluorescent protein (GFP)-reporter T-cells, and HIV-1 replication was measured in the co-culture supernatants using p24 ELISA (Fujirebio) or by evaluating GFP fluorescent by flow cytometry, as we described ([13]–[15]). Fluorescent profiles were acquired using a Guava easyCite and analyzed with the InCyte software (Merck-Millipore).
(§2) Data was analyzed using Prism software (GraphPad). Concentration-response curves were analyzed with the [log(agonist) vs. response (three parameters)] model for langrin upregulation and the [log(inhibitor) vs. normalized response − variable slope] model for HIV-1 trans-infection inhibition. […] Statistical significance was analyzed with the two-tailed Student’s t-test. […]

[3] = test system: langerin surface expression in MDLCs; test: Langerin surface expression in MDLCs (flow cytometry); format: cell-based, human; settings: MDLCs treated 24 h, -log molar, n = 5
Procedure: as §1, §2

[4] = test system: LC-T-cell conjugates in inner foreskin tissue explants; test: LC-T-cell conjugate formation in inner foreskin tissue explants ex-vivo; format: cell-based, human; settings: explants pre-treated 24 h at 1 μM, polarized inoculation with HIV-1-infected PBMCs 4 h; flow cytometry; n = 4
Procedure: (§3) For infection experiments, round (8 mm diameter) inner foreskin tissue pieces were placed in 24-well plates and incubated submerged for 24 h at 37°C with 1 ml complete RPMI medium, alone or supplemented with CGRP or SAX (1 μM, four explants per condition). The tissues were next washed, transferred to two-chamber transwell inserts (Sigma), and inoculated in a polarized manner for 4 h at 37°c with either non-infected or HIV-1 (V29)-infected PBMCs (in duplicates), as we described ([11], [12]).
Epidermal cell suspensions were prepared immediately after inoculation, using enzymatic digestion with dispase/trypsin as we described ([11], [12]). Pooled cells of each duplicate were resuspended in PBS, transferred to 96 round-bottom well plates and stained for 30 min on ice with 10 μl of fluorescein isothiocyanate (FITC)-conjugated mouse-anti-human CD1a, PE-conjugated mouse-anti-human CD8 and allophycocyanin (APC)-conjugated mouse-anti-human CD3 (BD Pharmingen) Abs, diluted in PBS in a final volume of 50 μl/well.
Figure 6 CGRP and SAX inhibit mucosal HIV-1 transmission in human mucosal tissues ex-vivo. […] Images are representative of n = 3 tissues; broken lines denote the basement membranes and scale bar = 20 μm; E, epithelium and S, stroma. (B, C) Inner foreskin tissue explants were left untreated or pre-treated with CGRP or SAX (1 μM) for 24 h at 37°C. […]

[5] = test system: HIV-1 (V29)-infected PBMCs; test: HIV-1 infection of dermal T-cells in inner foreskin tissue explants ex-vivo; format: cell-based; settings: explants pre-treated 24 h at 1 μM, inoculated 4 h, further three days incubation; flow cytometry; n = 4
Procedure: as §3
Dermal cell suspensions were prepared following washing of the explants, additional incubation for three days at 37°C submerged in 1 ml fresh medium, and subsequent enzymatic digestion with collagenase/DNase as we described ([11], [12]). Pooled cells of each duplicate were surface stained as above using FITC-conjugated mouse-anti-human CD3 Ab (Pharmingen), fixed, permeabilized, and stained for 30 min at room temperature with 1:160 dilution of PE-conjugated mouse-anti-human Ab to HIV-1 p24 and core antigens (Beckman Coulter). Fluorescent profiles were recorded using a Guava easyCyte and InCyte software.
Figure 6 CGRP and SAX inhibit mucosal HIV-1 transmission in human mucosal tissues ex-vivo. […] Images are representative of n = 3 tissues; broken lines denote the basement membranes and scale bar = 20 μm; E, epithelium and S, stroma. […]

calcitonin gene-related peptide [CGRP]
CD4+ T-cells counts ([1]; single application of 500 nM or 5 μM for 4 h before challenge, weeks 4, 6, 24 and 26): significantly maintained higher | Plasma viral loads ([1]; single application of 500 nM or 5 μM in 30 μl PBS for 4 h before challenge, weeks 4 and 6): dose dependently and significantly restricted the increase | pIC50 [95% CI], inhibition of MDLCs-mediated HIV-1 trans-infection ([2]; pulsed with HIV-1 ADA 4 h, 7 days with autologous CD4+ T-cells, p24 ELISA, -log molar, n = 5): 10.2 [10.9–9.4] | Inhibition of MDLCs-mediated HIV-1 trans-infection (in words) ([2]; p24 ELISA or GFP-reporter T-cells by flow cytometry): strongly inhibited | pEC50 [95% CI], increase in langerin surface expression [3]: 10.6 [11.5–9.7] | HIV-1-induced increase in LC-T-cell conjugates [4]: completely abrogated this increase | HIV-1 infection of dermal T-cells (p24+CD3+) [5]: completely blocked such infection
